Anti-infective test results gathered from many reports (values: NIAID ChemDB through PubChem).

Shared fields: host cell toxicity; endpoint: CC50

An empty or dashed field is not shown.

SMILES	cells	method	conditions	value
NC1C=CC(CC[C@H](N)C(=O)O)C=C1	HeLa			200 µg/mL
O=C1C=C(Nc2ccccc2C(=O)CC(=O)C(=O)Nc2ccc(Cl)cc2)c2ccccc2C1=O	VERO			5.19 µg/mL
Nc1ncc2c(ncn2COC(CO)CO)n1	CBMC	MTT		26 µM
O=c1cc(-c2ccc(Oc3c(O)cc4oc(-c5ccc(O)cc5)cc(=O)c4c3O)cc2)oc2cc(O)cc(O)c12	MDCK	neutral red		2.2 µg/mL
COc1cc([C@@H]2c3cc4c(cc3[C@H](OC(C)=O)[C@@H]3COC(=O)[C@H]23)OCO4)cc2c1OCCO2	MEL-28			2.2 µM
COC1=CC(=O)N(C(=O)C2CSC(C(CO)NC(=O)c3csc(C=NO)n3)=N2)C1	HeLa			100 µg/mL
O=C(N[C@H]1N=C(c2ccccc2)c2ccccc2NC1=O)c1cccc2cc[nH]c12	HEP-2			1.2 µM
CN1C(=O)C23SSC1(C)C(=O)N2c1ccccc1C3(C)C	VERO			6 µg/mL
CC(C)=CC[C@H]1C[C@@]2(C[C@H]3CCC(C)(C)C=C3C)C(=O)[C@](C(=O)c3ccccc3)(C(=O)C3=C2OC(C)(C)CC3)C1(C)C	MCF-7	sulforhodamine / absorbance		>50 µM
C/C=C(\CO)C(=O)O[C@H]1[C@H](O)[C@@H](C(=O)OC)O[C@@H]2C[C@H]3O[C@@H](n4cnc5c(N)ncnc54)[C@H](OC)[C@H]3O[C@]21O	HeLa			100 µg/mL
Nc1nc(N)c2ncn(C[C@@H](CO)OCP(=O)(O)O)c2n1	CBMC	MTT		30 µM
OC(c1cc(-c2ccccc2)nc2c(Cl)cc(Cl)cc12)C1CCCCN1	VERO			1.5 µg/mL
COC(=O)[C@@H]1[C@H](c2cc(OC)c(OC(C)=O)c(OC(C)=O)c2)c2cc3c(cc2C2=NOC[C@@H]21)OCO3	HT-29			20 µM
O=C(N[C@H]1N=C(c2ccccc2)c2ccccc2NC1=O)c1ccccc1O	HEP-2			2 µM
C[C@H](Cn1cnc2c(N)ncnc21)OCP(=O)(O)O	SupT1			>250 µg/mL
Nc1ccn(C[C@@H](CO)OCP(=O)(O)O)c(=O)n1	CBMC	MTT		190 µM
CSc1nc(N)cc(OCCOCP(=O)(O)O)n1	HeLa S3			<10 µM
COC(=O)[C@@H]1[C@H](c2cc(OC)c3nc4ccccc4nc3c2)c2cc3c(cc2C2=NOC[C@@H]21)OCO3	P-388			10 µM
CC(C)=CC[C@H]1C[C@]2(C[C@H]3CCC(C)(C)C=C3C)C(=O)C3=C(OC(C)(C)CC3)[C@@](C(=O)c3ccccc3)(C2=O)C1(C)C	ASK (Atlantic salmon kidney)	sulforhodamine / absorbance		>50 µM
COc1cc([C@@H]2c3cc4c(cc3[C@H](OC(C)=O)[C@@H]3COC(=O)[C@@H]23)OCO4)cc2c1OC1(N3CCOCC3)CCCCC1O2	HT-29			8.66 µM
Nc1ccc2nc3ccc(N)cc3[n+](-c3ccccc3)c2c1	VERO			17.49 µg/mL
C/C(=N\OCc1ccc(F)cc1)c1c(C)cc(=O)n(O)c1O	HepG2-NTCO-12	MTS	3 d	>100 µM
CC(C)(C)C1=CC(=C2C(=O)C(=O)c3ccccc3C2=O)C=C(C(C)(C)C)C1=O	VERO			10 µg/mL
CC(C)=CCC[C@@H](C)[C@@H]1CC[C@]2(C)C3=C(CC[C@@]12C)[C@@]1(C)CC[C@H](O)C(C)(C)[C@@H]1CC3	ASK (Atlantic salmon kidney)	sulforhodamine / absorbance		>50 µM
Nc1cc(=O)n(CCOCP(=O)(O)O)c(N)n1	HeLa S3			<10 µM
COc1cc([C@@H]2c3cc4c(cc3[C@H](OC(C)=O)[C@@H]3COC(=O)[C@@H]23)OCO4)cc2c1OC1(N3CCCC3)CCCCC1O2	P-388			2.02 µM
Nc1nc2c(ncn2COC(CO)CO)c(=O)[nH]1	SupT1			50 µg/mL
Cc1cc(C)cc(NC(=O)NC2N=C(c3ccccc3)c3ccccc3NC2=O)c1	HEP-2			1.5 µM
C/C=C/C(=O)OC	HeLa			>200 µg/mL
Nc1ncc2c(ncn2COC(CO)CO)n1	CD4+ T lymphocytes			1.3 µg/mL
O=c1cc(-c2ccc(O)c(-c3c(O)cc4oc(-c5ccc(O)cc5)cc(=O)c4c3O)c2)oc2cc(O)cc(O)c12	MA-104	visual reading		~56 µg/mL
CO[C@H]1/C=C/O[C@@]2(C)Oc3c(C)c(O)c4c(O)c(c(/C=N/Nc5ccc([N+](=O)[O-])cc5[N+](=O)[O-])c(O)c4c3C2=O)NC(=O)/C(C)=C\C=C\[C@H](C)[C@H](O)[C@@H](C)[C@@H](O)[C@@H](C)[C@H](OC(C)=O)[C@@H]1C	VERO			8 µg/mL
COC(=O)[C@@H]1[C@H](c2cc(OC)c3nc4cc(Cl)c(Cl)cc4nc3c2)c2cc3c(cc2C2=NOC[C@@H]21)OCO3	HT-29			>18 µM
Cc1cc2no[n+]([O-])c2cc1C	VERO			>10 µg/mL
C/C(=C\C=C\C(C)[C@H]1CC[C@@]2(C)[C@@H]3CC[C@H]4C(C)(C)C(=O)CC[C@]4(C)C3=CC[C@]12C)C(=O)O	P-388	sulforhodamine / absorbance		>50 µM
COc1cccc(CNC2N=C(c3ccccc3)c3ccccc3NC2=O)c1	VERO			30 µM
COc1cc([C@@H]2c3cc4c(cc3[C@H](OC(C)=O)[C@@H]3COC(=O)[C@H]23)OCO4)cc2c1OCO2	P-388			2.27 µM
Nc1cc(OCCOCP(=O)(O)O)ncn1	CCRF-CEM			<10 µM
COc1cc([C@@H]2c3cc4c(cc3[C@H](OC(C)=O)[C@@H]3COC(=O)[C@@H]23)OCO4)cc2nccnc12	P-388			0.56 µM
CC(C)=CC[C@H]1C[C@@]2(C[C@H]3CCC(C)(C)C=C3C)C(=O)[C@](C(=O)c3ccccc3)(C(=O)C3=C2OC(C)(C)C=C3)C1(C)C	P-388	sulforhodamine / absorbance		18.35 µM
Nc1cc(SCCOCP(=O)(O)O)nc(N)n1	CCRF-CEM			<10 µM
CC(=O)Oc1ccc([C@@H]2CC(=O)c3c(cc(OC(C)=O)c(-c4c(OC(C)=O)cc5c(c4OC(C)=O)C(=O)C[C@@H](c4ccc(OC(C)=O)cc4)O5)c3OC(C)=O)O2)cc1	BSC-1	visual reading		<4 µg/mL
CN(C)c1cc(OCCOCP(=O)(O)O)nc(N)n1	HeLa S3			<10 µM
O=c1[nH]c(=O)n([C@H]2C[C@H](O)[C@@H](CO)O2)cc1I	CBMC	MTT		170 µM
N[C@H]1[C@H](O)[C@@H](O)[C@@H](O[C@H]2O[C@H](CO)[C@@H](O)[C@H](O)[C@H]2O)O[C@@H]1CO	HeLa			>400 µg/mL
Nc1ccn(C[C@H]2COP(=O)(O)CO2)c(=O)n1	CD4+ T lymphocytes			44 µg/mL
COC(=O)[C@@H]1[C@H](c2cc(OC)c3nc4cc(C)c(C)cc4nc3c2)c2cc3c(cc2C2=NOC[C@@H]21)OCO3	HT-29			1 µM
Nc1nc(N)c2ncn(CCOCP(=O)(O)O)c2n1	HSB-2	MTT		153 µM

A second listing of 4 rows from above:

SMILES	cells	method	conditions	value
Nc1ccc2nc3ccc(N)cc3[n+](-c3ccccc3)c2c1	VERO			17.49 µg/mL
CC(=O)Oc1ccc([C@@H]2CC(=O)c3c(cc(OC(C)=O)c(-c4c(OC(C)=O)cc5c(c4OC(C)=O)C(=O)C[C@@H](c4ccc(OC(C)=O)cc4)O5)c3OC(C)=O)O2)cc1	BSC-1	visual reading		<4 µg/mL
COc1cc([C@@H]2c3cc4c(cc3[C@H](OC(C)=O)[C@@H]3COC(=O)[C@@H]23)OCO4)cc2c1OC1(N3CCOCC3)CCCCC1O2	HT-29			8.66 µM
CO[C@H]1/C=C/O[C@@]2(C)Oc3c(C)c(O)c4c(O)c(c(/C=N/Nc5ccc([N+](=O)[O-])cc5[N+](=O)[O-])c(O)c4c3C2=O)NC(=O)/C(C)=C\C=C\[C@H](C)[C@H](O)[C@@H](C)[C@@H](O)[C@@H](C)[C@H](OC(C)=O)[C@@H]1C	VERO			8 µg/mL

Lines come from different laboratories, so protocols vary. CCn: concentration that lowers growth or viability of the cells by n%.